# Laboratory results published in article PMC11961260 (Royal Society Open Science, 2025).
# Experiment: general procedure: Fmoc solid-phase peptide synthesis; 2-chlorotrityl chloride (2-CTC) resin (substitution = 0.6 mmol g^-1); DIC, Oxyma, DIEA
# [1] = whole synthesis, scale of the general procedure 0.05 mmol
# [2] = whole synthesis, scale 0.05 mmol
# [3] = whole synthesis, scale 0.01 mmol
Substance,step yield (late stage modification step) [%],final HPLC purity (late stage modification step) [%],final HPLC purity [1] [%],isolated mass [2] [mg],isolated yield [2] [%],isolated mass [3] [mg],isolated yield [3] [%]
Boc-E(WE-COOH)WE-COOH,60,99,–,–,–,–,–
Ptz-GE(FE-COOH)FE-COOH,–,–,99.9,11,22,–,–
Ptz-GE(HE-COOH)HE-COOH,–,–,99.8,9,18,–,–
Ptz-GE(WE-COOH)WE-COOH,–,–,99.9,20,18,–,–
Ptz-GE(YE-COOH)YE-COOH,–,–,99.5,10,20,–,–
Ptz-GE(hE-COOH)hE-COOH,–,–,99.8,–,–,1.7,17
Ptz-GE(wE-COOH)wE-COOH,–,–,98,–,–,2,19
